# B1: hLAG-3-Ig conjugate (extracellular domain of human LAG-3, amino acids 23-450, fused with the constan (Fc fusion)
# chain: LQPGAEVPVVWAQEGAPAQLPCSPTIPLQDLSLLRRAGVTWQHQPDSGPPAAAPGHPLAPGPHPAAPSSWGPRPRRYTVLSVGPGGLRSGRLPLQPRVQLDERGRQRGDFSLWLRPARRADAGEYRAAVHLRDRALSCRLRLRLGQASMTASPPGSLRASDWVILNCSFSRPDRPASVHWFRNRGQGRVPVRESPHHHLAESFLFLPQVSPMDSGPWGCILTYRDGFNVSIMYNLTVLGLEPPTPLTVYAGAGSRVGLPCRLPAGVGTRSFLTAKWTPPGGGPDLLVTGDNGDFTLRLEDVSQAQAGTYTCHIHLQEQQLNATVTLAIITVTPKSFGSPGSLGKLLCEVTPVSGQERFVWSSLDTPSQRSFSGPWLEAQEAQLLSQPWQCQLYQGERLLGAAVYFTELSSPGAQRSGRAPGALPAGHLASTKGPSVFPLAPSSKSTSGGTAALGCLVKDYFPEPVTVSWNSGALTSGVHTFPAVLQSSGLYSLSSVVTVPSSSLGTQTYICNVNHKPSNTKVDKKV[in this place human IgG1 Fc]
# B2: hPD-1-Ig (Fc fusion)
# chain: LDSPDRPWNPPTFSPALLVVTEGDNATFTCSFSNTSESFVLNWYRMSPSNQTDKLAAFPEDRSQPGQDCRFRVTQLPNGRDFHMSVVRARRNDSGTYLCGAISLAPKAQIKESLRAELRVTERRAEVPTAHPSPSPRPAGQFQ
# B3: hCTLA-4-IG (Fc fusion)
# chain: not shown
# How the values were obtained:
# [1] = biological target: SARS-COV-2 spike glycoprotein (SARS-COV-2); experiment: ELISA, plate coated with hLAG3-Ig, anti-SARS-Cov-2 antibody detection
# [2] = biological target: HA glycoprotein of A/Puerto Rico/8/1934 (H1N1) influenza virus, purified (influenza virus A/Puerto Rico/8/1934 …); experiment: ELISA, plate coated with the fusion protein
binder,measurement,setting,value
B1,binding result,[1],no binding
B2,binding result,[2],no binding
B3,binding result,[2],no binding

# Reference: patent US20260265372A1 (TECHNION RESEARCH AND DEVELOPMENT FOUNDATION, published 2026)
